Pooled drug test results. Numbers come from NIAID ChemDB, via PubChem.

Common to all: toxicity to cultured cells; cells: E6SM; read-out: CC50

Conditions beyond the fields shown may differ between rows. CCn is the concentration with n% toxicity to the cells.

smiles,result
COC(=O)[C@H](C)NP(=O)(OC[C@H]1O[C@@H](n2cc(/C=C/Br)c(=O)[nH]c2=O)C[C@@H]1O)Oc1ccc(Cl)cc1,400 µM
CC1(C)[C@@H](CO)CC[C@@]1(C)Cn1cnc2c(N)ncnc21,>400 µg/mL
CCc1nc(CC(=O)NN=C(C)C)nn1CC,>400 µg/mL
CC(C)CS[C@H]1C[C@@H](n2cnc3c(N)ncnc32)[C@H](O)[C@@H]1O,≥400 µg/mL
Nc1nc2c(ncn2COC(CO)CO)c(=O)[nH]1,>100 µg/mL
Nc1ncnc2c1ncn2[C@@H]1C[C@@H](O)[C@@H](O)[C@H]1O,>400 µg/mL
COc1ccc(-n2c(Cc3nc4n(n3)CCCC4)n[nH]c2=S)cc1,400 µg/mL
NC(=O)CSc1ncnc2c1cnn2CCCCO,>400 µg/mL
O=c1ccn([C@@H]2C[C@H](CO)C[C@H]2CO)c(=O)[nH]1,>200 µg/mL
CC1(C)[C@@H](CO)CC[C@@]1(C)Cn1ccc(=O)[nH]c1=O,>400 µg/mL
CCn1nc(CC(=O)NN=C(C)C)nc1C,>400 µg/mL
Nc1nc2c(ncn2[C@@H]2C=C[C@H](CO)[C@@H](O)C2)c(=O)[nH]1,>400 µg/mL
COc1cc2c(cc1OC)[C@@H]1C(N)CSCON1CC2,≥100 µg/mL
CC(Sc1ncnc2c1cnn2COCC(O)CO)C(N)=O,>400 µg/mL
O=c1[nH]c(=O)n([C@@H]2CO[C@H](CO)[C@@H](O)C2)cc1-c1cccs1,>400 µg/mL
Cc1nc(Cc2n[nH]c(=S)n2-c2ccccc2)nn1C,400 µg/mL
Cc1cn(CC[C@H](O)CCO)c(=O)[nH]c1=O,>400 µg/mL
CC(C)Nc1ncnc2c1ncn2C1C[C@H](CO)[C@@H](CO)C1,>200 µg/mL
Nc1ncnc2c1ncn2CC[C@H](O)CCO,>400 µg/mL
CC1(C)[C@@H](CO)CC[C@@]1(C)Cn1nnc2c(=O)[nH]cnc21,>400 µg/mL
C=Cc1cn([C@@H]2CO[C@H](CO)[C@@H](O)C2)c(=O)[nH]c1=O,>400 µg/mL
CCC(Sc1ncnc2c1cnn2CCCCO)C(N)=O,>400 µg/mL
CO[C@H](CO)[C@@H](O)CCn1cnc2c(=O)[nH]c(N)nc21,>400 µg/mL
COC(=O)[C@H](C)NP(=O)(OC[C@H]1O[C@@H](n2cc(/C=C/Br)c(=O)[nH]c2=O)C[C@@H]1O)Oc1ccccc1,>400 µM
CO[C@H](CO)[C@@H](O)CCn1ccc(N)nc1=O,>400 µg/mL
CCn1nc(-c2ccc(Cn3ccc4ccccc43)cc2)nc1C,400 µg/mL

For reference, 2 entries again:

smiles | result
COc1ccc(-n2c(Cc3nc4n(n3)CCCC4)n[nH]c2=S)cc1 | 400 µg/mL
CO[C@H](CO)[C@@H](O)CCn1ccc(N)nc1=O | >400 µg/mL